The values below come from PubChem BioAssay AID624415 (National Center for Advancing Translational Sciences (NCATS), 2012).

Protein sequences, listed by entry. Tags and fused reporters are not part of them.
UniProt Q9GZU1, whole entry: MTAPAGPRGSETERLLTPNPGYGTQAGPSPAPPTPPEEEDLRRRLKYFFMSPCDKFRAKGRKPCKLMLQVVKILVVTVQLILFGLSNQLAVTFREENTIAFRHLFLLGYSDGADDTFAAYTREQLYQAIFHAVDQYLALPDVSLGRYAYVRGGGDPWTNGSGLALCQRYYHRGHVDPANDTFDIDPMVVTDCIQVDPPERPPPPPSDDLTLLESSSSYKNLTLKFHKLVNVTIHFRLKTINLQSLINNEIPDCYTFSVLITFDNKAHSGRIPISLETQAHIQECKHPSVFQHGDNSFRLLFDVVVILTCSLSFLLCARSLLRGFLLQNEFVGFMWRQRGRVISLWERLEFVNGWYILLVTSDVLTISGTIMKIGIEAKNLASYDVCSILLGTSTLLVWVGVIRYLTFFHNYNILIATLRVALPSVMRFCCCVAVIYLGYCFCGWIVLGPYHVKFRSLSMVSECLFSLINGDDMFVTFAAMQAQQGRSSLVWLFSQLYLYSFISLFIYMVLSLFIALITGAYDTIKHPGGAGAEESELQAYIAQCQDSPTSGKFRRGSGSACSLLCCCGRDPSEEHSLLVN

The structures appear in SMILES notation. The list shows a part of the results, in another mix than the full data. The source made the active and inactive calls. Cut-off read from the data, not from the text of the source: active = activity change below about -50%; inconclusive = between about -30% and that limit; inactive = weaker than that.
% is set by controls: 0 for no effect and ±100 for the full control effect.

The target of this assay is Mucolipin-1 (Homo sapiens) (UniProt Q9GZU1). Briefly: qHTS for Inhibitors of the Human Mucolipin Transient Receptor Potential 1 (TRPML1).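 Note: stimulus is agonist 54-4 at its EC80 concentration.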 The conditions noted are these: TRPML1-inducible cells, Ca2+ dye fluorescence, FDSS; stronger effect = lower value; inhibition of EC80 agonist-evoked calcium signal. From the text: Mutations of human Mucolipin transient receptor potential 1 (TRPML1) cause type IV mucolipidosis (ML4), a devastating neurodegenerative disease in young children. […] Currently, there is no treatment for ML4. […] Under physiological conditions, TRPMLs regulate membrane trafficking by transducing information about PI(3,5)P2 levels into changes in juxtaorganellar Ca2+, thereby triggering membrane fusion/fission events in the late endocytic pathways (endolysosomal trafficking). In addition, TRPML1 mediates release of Fe2+ from late endosomes and lysosomes, which is essential for cellular iron metabolism. Thus, impaired ion (Ca2+ and Fe2+) homeostasis underlies lysosomal dysfunction and ML4 phenotypes. In ML4 cells, the problem is twofold. First, defective Ca2+-dependent membrane trafficking due to TRPML1-deficiency causes accumulation of lipids and other bio-materials in the lysosome. The second strike comes from the lysosomal iron overload (due to impairment of TRPML1's Fe2+ conductivity), which converts the accumulated materials into the nondegradable (resistant to lysosomal degradation) lipofuscin (also called aging pigment) in the lysosome. Lipofuscin accumulation dramatically compromises the functions of lysosomes.
Niemann-Pick type C (NPC) disease is another lysosome storage disease (LSD) with severe neurodegeneration during the childhood. Currently, there is no cure for NPC. […] Thus, TRPML1 is likely to be an essential regulator of lysosome ion homeostasis. We specifically hypothesize that stimulating TRPML1's Fe2+/Ca2+ channel activity in the lysosome using synthetic agonists can alleviate neurodegeneration associated with ML4 or NPC.
To this end, a high throughput screen was developed in a miniaturized format to screen against the Molecular Libraries Small Molecule Repository (MLSMR) to find small molecules that act either as inhibitors or agonist against the TRPML1 channel.
NIH Chemical Genomics Center [NCGC]
NIH Molecular Libraries Probe Centers Network [MLPCN]
Assay Submitter (PI): Haoxing Xu, University of Michigan Ann Arbor
TRPML1-DL cells are dissociated from flasks, counted and, brought up to a density of 500,000 cells per mL of media containing a 1X Tet inducer. Using a Multidrop Combi, 3 uL of this cell solution is dispensed to each well of a 1536 TC treated, black, clear bottom hi base plate for a final cell density of 1,500 cells per well. The assay plates are incubated overnight (approximately 16 hours) at 37 degrees C and 5% CO2. Using a Multidrop Combi, 2 uL of ABD Ca8 no wash dye plus quencher is added to each well. The assay plates incubate at room temperature in the dark for 45-90 minutes. The assay plate is read on the FDSS using the following protocol: 10 second baseline read, 23 nL of compounds and controls are added using 1536 pintool, agonist read for 110 seconds, 1 uL EC80 addition (4 uM final 54-4 diluted in media), antagonist read for 110 seconds.
On the technique in general: qHTS replaces the single test concentration by a dilution series.
With `CCN(N=Nc1nonc1N)c1nonc1N`, the activity change, negative = inhibition was inactive: -3.11%.
Regarding `CC(C)(C)c1ccc(OP(C)(=O)Nc2ccc(SC(F)(F)F)cc2)cc1` (stereo not drawn), the activity change, negative = inhibition was inactive: 10.2%.
With `Cc1ccc(OP(=O)(Nc2ccc([N+](=O)[O-])cn2)Oc2ccc(C)cc2)cc1` the figure was inactive: 28.6%.
With `Cc1cccc(C)c1OP(C)(N)=O` (stereo not drawn) the figure was inactive: 15.8%.
Turning to `Cc1ccc2nc3c(c(C)c2c1)CC(C(Cl)Cl)S3` (stereo not drawn), the activity change, negative = inhibition was inactive: 3.97%.
With `O=[N+]([O-])c1ccc2c(c1)C=Nc1ccccc1O2` the figure was inactive: -1.68%; with `O=[N+]([O-])c1cc([N+](=O)[O-])c(Nc2cccnc2)c([N+](=O)[O-])c1`, inactive: 22.4%; with `C[As](=O)(O)c1cccc(C(=O)O)c1`, inactive: 7.44%.
In the case of `O=[As](O)(c1ccc(O)cc1)c1ccccc1O`, the activity change, negative = inhibition was inactive: 19.8%.
With `COc1cc(C(=O)NCC2(N3CCOCC3)CCCCC2)ccc1OCC(C)C` the figure was inactive: 7.95%.
Regarding `O=[N+]([O-])c1ccc(-c2cc([N+](=O)[O-])c(O)c([N+](=O)[O-])c2)cc1`, the activity change, negative = inhibition is inactive: -9.47%.
Turning to `CCN(CC)C(=S)SC(NC=O)C(Cl)(Cl)Cl` (stereo not drawn), the activity change, negative = inhibition is inactive: -10.1%.
With `O=C(OC1CN2CCC1CC2)c1cccc2[nH]cnc12` (stereo not drawn) the figure was inactive: -24.9%; with `CC(C)NC(=O)NP(=O)(Oc1ccccc1)Oc1ccccc1`, inactive: -11.8%; with `COc1ccccc1OP(C)(=O)Nc1cc(Cl)ccc1C` (stereo not drawn), inactive: -0.756%.
With `O=[N+]([O-])c1cc([N+](=O)[O-])c(-c2ccn[nH]2)s1` the figure was inactive: -11.9%.
Consider `COc1ccc(OP(C)(=O)Nc2cccc(F)c2)cc1` (stereo not drawn), for which the activity change, negative = inhibition was inactive: 3.93%.
With `Cc1cc(C)cc(OP(C)(N)=O)c1` (stereo not drawn) the figure was inactive: 10.1%.
With `CCOC(=O)c1ccc(NP(C)(=O)Oc2ccccc2)cc1` (stereo not drawn) the figure was inactive: 5.59%.
With `ClCCSc1nnc(-c2cccnc2)o1`, the activity change, negative = inhibition was inactive: 2.34%.
With `COc1ccccc1OP(C)(=O)Nc1ccc(C)cc1` (stereo not drawn) the figure was inactive: 23%.
With `Cc1ccc(NP(C)(=O)Oc2ccccc2)c(C)c1` (stereo not drawn) the figure was inactive: -2.54%; with `CC(C)c1ccc(OP(=O)(Nc2ccccn2)Oc2ccccc2F)cc1` (stereo not drawn), inactive: 21.3%; with `COC(=O)C1(C)COP(=O)(N2CCCCCC2)OC1` (stereo not drawn), inactive: -6.94%.
On to `O=P1(N(CCCl)CCCl)Nc2ccccc2N1`, for which the activity change, negative = inhibition was inactive: -13.9%.
`O=P1(N(CCCl)CCCl)OCCCN1CCCl` (stereo not drawn): the activity change, negative = inhibition is inactive: 18.4%.
Consider `COc1ccc2nc(NP(=O)(c3ccccc3)c3ccccc3)sc2c1`, for which the activity change, negative = inhibition is inactive: -15.8%.
In the case of `COc1cc(I)ccc1[As](=O)(O)O`, the activity change, negative = inhibition is inactive: 19.9%.
With `Cc1c2c(nc3ccccc13)SC(C(Cl)Cl)C2` (stereo not drawn), the activity change, negative = inhibition is inactive: 58%.
With `O=C(OC1CN2CCC1CC2)C12CC3CC(CC(C3)C1)C2` (stereo not drawn) the figure was inactive: 14.5%; with `Cc1cc(=O)[nH]c(N[N+](=O)[O-])n1`, inactive: -2.58%; with `CCN(CC)CCCOC(=O)C(O)(c1ccccc1)c1ccccc1`, inactive: 11.3%.
With `O=[N+]([O-])c1cc(Oc2ccc([N+](=O)[O-])cc2C(F)(F)F)cc([N+](=O)[O-])c1` the figure was inactive: -17.4%; with `COc1ccc(N/C(=N/P(=O)(N2CCOCC2)N2CCOCC2)N2CCOCC2)cc1`, inactive: -12.5%.
For `CCc1ccc(OP(C)(=O)N2CCN(c3ccc([N+](=O)[O-])cc3)CC2)cc1` (stereo not drawn), the activity change, negative = inhibition was inactive: 12.7%.
With `CP(=O)(NC(=O)Nc1ccccc1)Oc1ccccc1` (stereo not drawn) the figure was inactive: 4.36%; with `O=C(COc1ccccc1)OC1CN2CCC1CC2` (stereo not drawn), inactive: 2.7%; with `O=C(Nc1ccncc1[N+](=O)[O-])c1ccc([N+](=O)[O-])cc1[N+](=O)[O-]`, inactive: 6.52%.
With `Cc1cc(C)cc(OP(C)(=O)Nc2ccc(SC(F)(F)F)cc2)c1` (stereo not drawn), the activity change, negative = inhibition was inactive: 52.6%.
With `CP(=O)(Nc1ccc(SC(F)(F)F)cc1)Oc1ccc(Cl)cc1` (stereo not drawn) the figure was inactive: 46%.
With `Cc1cccc(C)c1OP(C)(=O)Nc1ccc(SC(F)(F)F)cc1` (stereo not drawn) the figure was inactive: 2.51%.
In the case of `COP1(=S)c2c(C)nn(CCC#N)c2N=C(c2ccc(F)cc2)N1C` (stereo not drawn), the activity change, negative = inhibition is inactive: 4.2%.
As to `CP(=O)(Oc1ccccc1)OC(c1ccccc1)C(F)(F)F` (stereo not drawn), the activity change, negative = inhibition was inactive: 28%.
With `CCC(C)N(CC(C)C)C(=S)SC(NC(C)=O)C(Cl)(Cl)Cl` (stereo not drawn) the figure was inactive: -11.7%.
Consider `CP(=O)(Nc1ccccn1)Oc1ccc(Cl)cc1` (stereo not drawn), for which the activity change, negative = inhibition was inactive: 0.423%.
Regarding `CCOP(=O)(Nc1cccc2cccnc12)OCC`, the activity change, negative = inhibition is inactive: -0.317%.
For `CCOP(C)(=S)SCC(=O)NC(C)C(=O)O` (stereo not drawn), the activity change, negative = inhibition was inactive: 23.7%.
Regarding `O=C(OC1CN2CCC1CC2)c1cccc([N+](=O)[O-])c1` (stereo not drawn), the activity change, negative = inhibition is inactive: -11.1%.
